Earlier results, collected in US20160374967A1, “ORGANIC THIOPHOSPHATE ANTIRETROVIRAL AGENTS” (The Government of the U.S.A., as Represented by the …, priority 2006, published 2016).
Where two headings read alike, the source gives them in different places.

Conditions: mice, cited from earlier work

SMILES: CNCCCNCCSP(=O)(O)O
- maximally tolerated dose (MTD) (i.p.): 893 mg/kg BW
- maximally tolerated dose (MTD) (p.o.): 1488 mg/kg BW
